The target in experiment [1] is S. aureus SgtB. Kind of experiment: Fluorescence polarization probe competition (Ki). Conditions: read-out: Ki (displacement of probe CMG121); probe CMG121 75 nM, S. aureus SgtB 0.2 μM; tested form: NH4 salt. On the procedure: To equilibrated solutions containing 10 mM TRIS (pH=8.0), 100 mM NaCl, 75 nM S16, and bacterial glycosyltransferase (E. coli PBP1b c=0.1-0.15 uM; E. faecalis PBP2a c=0.38-0.46 uM; S. aureus SgtB c=0.2-0.25 uM) was added the test compound in DMSO or DMSO/H2O solutions (stock solutions were typically 2 mM) to obtain a final concentration of test compound of ca. 200 uM. These solutions were serially diluted (1/1 dilutions) into buffer containing 10 mM TRIS (pH=8.0), 100 mM NaCl, 75 nM Probe CMG121, and bacterial glycosyl transferase (E. coli PBP1b c=0.1-0.15 uM; E. faecalis PBP2a c=0.38-0.46 uM; S. aureus SgtB c=0.2-0.25 uM). After equilibration at 0° C. for 30 min the 20 μL of the solutions were transferred to a black 384 well plate (Corning NBS Low Volume) and fluorescence polarization (FP, ex: 480 nm; em: 535 nm) was measured using a Perkin Elmer Envision microplate reader. […]
A black 384 well plate (Corning NBS Low Volume No. 3820) was filled (10 μL per well) with an equilibrated solution containing 10 mM TRIS (pH=8.0), 100 mM NaCl, 75 nM disaccharide S15, and 1.0-1.5 μM S. aureus SgtB (depending on protein batch). […] The plate was incubated at 4° C. for 30 min and read with an Perkin Elmer EnVision microplate reader as described above. […]
For determination of the Ki, the average FP values were first converted to fluorescence anisotropy. […]

Chains of the proteins cited; added tags and fusions are not shown.
UniProt P02919, whole entry: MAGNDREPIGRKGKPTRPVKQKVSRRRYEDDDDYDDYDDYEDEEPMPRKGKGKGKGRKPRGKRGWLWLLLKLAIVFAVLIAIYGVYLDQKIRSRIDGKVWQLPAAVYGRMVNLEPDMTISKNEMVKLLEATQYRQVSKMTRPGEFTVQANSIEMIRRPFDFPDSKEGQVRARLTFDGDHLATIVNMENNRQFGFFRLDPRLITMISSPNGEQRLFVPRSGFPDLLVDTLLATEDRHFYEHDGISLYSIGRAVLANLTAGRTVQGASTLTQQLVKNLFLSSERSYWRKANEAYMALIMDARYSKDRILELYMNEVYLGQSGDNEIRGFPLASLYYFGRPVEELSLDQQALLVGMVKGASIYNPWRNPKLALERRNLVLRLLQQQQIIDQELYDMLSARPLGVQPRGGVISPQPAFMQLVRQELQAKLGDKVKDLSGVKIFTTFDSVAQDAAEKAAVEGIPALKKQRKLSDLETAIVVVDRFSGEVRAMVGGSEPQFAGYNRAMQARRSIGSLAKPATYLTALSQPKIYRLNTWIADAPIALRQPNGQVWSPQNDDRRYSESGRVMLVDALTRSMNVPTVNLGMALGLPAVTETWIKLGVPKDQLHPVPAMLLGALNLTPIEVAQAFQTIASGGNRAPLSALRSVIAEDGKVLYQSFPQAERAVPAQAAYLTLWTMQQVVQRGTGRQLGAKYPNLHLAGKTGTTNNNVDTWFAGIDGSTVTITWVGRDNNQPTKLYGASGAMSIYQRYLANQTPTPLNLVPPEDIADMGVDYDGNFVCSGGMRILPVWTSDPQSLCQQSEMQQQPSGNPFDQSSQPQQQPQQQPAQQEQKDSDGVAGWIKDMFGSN
UniProt Q93Q23, whole entry: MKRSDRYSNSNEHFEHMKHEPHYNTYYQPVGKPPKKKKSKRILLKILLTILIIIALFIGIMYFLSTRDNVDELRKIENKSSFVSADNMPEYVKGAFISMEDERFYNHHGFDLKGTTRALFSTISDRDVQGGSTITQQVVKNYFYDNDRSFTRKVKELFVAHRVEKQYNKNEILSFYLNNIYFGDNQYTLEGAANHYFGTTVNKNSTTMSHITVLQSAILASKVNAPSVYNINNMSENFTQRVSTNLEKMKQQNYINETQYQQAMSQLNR

The target of experiment [2] is T1, E. coli PBP1b (Escherichia coli, UniProt P02919). Kind of experiment: In vitro PGT inhibition, PG formation from 14C-lipid II. Conditions: read-out: IC50 inhibition of PG formation, E. coli PBP1b 50 nM, lipid II 4 μM, tested form: NH4 salt. As to the method: (§1) A solutions of S. aureus SgtB (50 nM) in 12.5 mM HEPES (pH=7.5), 2 mM MnCl2, and 250 μM tween-80 (8 μL) were incubated with DMSO solutions containing the inhibitor of interest in different concentrations (1 μL) for 20 min. Then ^14C-labelled lipid II (1 μL, 40 μM, ^14C/^12C 1/3) was added and the polymerization reaction was allowed to proceed for 25 min at room temperature. The reaction was quenched with 10 μL of a solution of moenomycin (1 μM) in 10% triton-X reduced and the remaining lipid II was separated from peptidoglycan (PG) using paper strip chromatography (isobutyric acid/1M NH4OH 5/3). Using a scintillation counter the ratio of radioactivity in PG to total radioactivity was determined and plotted vs. inhibitor concentration. IC50s were determined using the curve fitting program GraphPad Prism 5.0 (GraphPad Software, Inc.; La Jolla, Calif., USA).
Solutions of the PGT (50 nM) in 50 mM HEPES (pH=7.5), 10 mM CaCl2, and […] PenG (8 μL) were incubated with DMSO solutions containing the inhibitor of interest in different concentrations (1 μL) for 20 min. Then ^14C-labelled lipid II (1 μL, 40 μM, ^14C/^12C 1/3) was added and the polymerization reaction was allowed to proceed for 25 min at room temperature. The reaction was quenched and processed as described above.

Experiment [3] deals with T2, S. aureus SgtB (Staphylococcus aureus, UniProt Q93Q23). The experiment is described as above. The class given is biochemical. Conditions: read-out: IC50 inhibition of PG formation; S. aureus SgtB 50 nM, lipid II 4 μM; tested form: NH4 salt. As to the method:
as §1

Experiment [4] has as its system bacterial glycosyltransferase (E. coli PBP1b; E. faecalis PBP2a; S. aureus SgtB). Put plainly: Assay validation: displacement of probe compound from enzyme (fluorescence polarization). Conditions: 75 nM probe S16; test compound up to ca. 200 uM; tested form: NH4 salt.
Experiment [5] has as its target T2, S. aureus SgtB. Put plainly: Enzyme titration with probe, fluorescence polarization (KD). Conditions: read-out: KD of probe; 75 nM probe, 10 mM TRIS pH 8.0, 100 mM NaCl, 0.3% DMSO, 0 °C; tested form: NH4 salt. The class given is binding. As to the method: (§2) Solution containing 10 mM TRIS (pH=8.0), 100 mM NaCl, 0.3% DMSO, 75 nM S16, and bacterial glycosyltransferase (E. coli PBP1b c=2.2 uM; E. faecalis PBP2a c=5.1 uM; S. aureus SgtB c=2.1 uM) were allowed to equilibrate for 30 min at 0° C. and then serially diluted (1/1 dilutions) into buffer containing 10 mM TRIS (pH=8.0), 100 mM NaCl, 0.3% DMSO, and 75 nM S16. After equilibration at 0° C. for 30 min the 20 μL of the solutions were transferred to a black 384 well plate (Corning NBS Low Volume) and fluorescence polarization (FP, ex: 480 nm; em: 535 nm) was measured using a Perkin Elmer Envision microplate reader. Each series was performed in duplicate and the data was plotted FP vs. concentration of enzyme. For determination of the KD, the average FP values were converted to fluorescence anisotropy and fitted to the standard equation describing an equilibrium L+E<->LE (L=ligand; E=enzyme; LE=ligand enzyme complex) using GraphPad Prism 5.0 (GraphPad Software, Inc.; La Jolla, Calif., USA). The KD values for probe S16 are: E. coli PBP1b: 0.15; E. faecalis PBP2a: 0.38; […]

The subject of another experiment is E. faecalis PBP2a. The description is as above. The class given is binding. Conditions: read-out: KD of probe; 75 nM probe, 10 mM TRIS pH 8.0, 100 mM NaCl, 0.3% DMSO, 0 °C; tested form: NH4 salt. As to the method:
as §2

For experiment [6], the target named is T1, E. coli PBP1b. The description is as above. Conditions: read-out: KD of probe; 75 nM probe, 10 mM TRIS pH 8.0, 100 mM NaCl, 0.3% DMSO, 0 °C; tested form: NH4 salt. As to the method: as §2

Data on 2 compounds can be found in patent US10106833B2, “Methods and compounds for identifying glycosyltransferase inhibitors” (priority 2012, dated 2018).

Values joined by “and” are separate entries in the source; they are usually repeats but may differ in a detail not shown here. Identical values can stand only once. Like-named read-outs stand apart in the source and are kept apart here.

As to `CCCCCCCCCCCCCCCCOC(COP(=O)(O)OC1OC(C(N)=O)C(O)C(OC(N)=O)C1OC1OC(CO)C(O)C(O)C1NC(C)=O)C(=O)O` (stereo not drawn), the Ki on S. aureus SgtB [1] amounted to 3.17 µM. Moreover, the IC50 at E. coli PBP1b [2] was 1.5 µM and 1.54 µM; at S. aureus SgtB [3] it was 0.048 µM. In experiment [4], the “Displacement of the probe compound (change in fluorescence polarization) on addition of test compound” value is given as “decrease in fluorescence polarization”.
With `CCCCCCCCCCCCCCCCOC(COP(=O)(O)OC1OC(C(N)=O)C(O)C(OC(N)=O)C1OC1OC(CO)C(OC2OC(CO)C(O)C(O)C2NC(=O)Cn2cc(CNC(=O)c3ccc4c(c3)C(=O)OC43c4ccc(O)cc4Oc4cc(O)ccc43)nn2)C(O)C1NC(C)=O)C(=O)O` (stereo not drawn), the half-inhibitory concentration (IC50) at E. coli PBP1b [2] was found to be 0.6 µM; at E. coli PBP1b [2] (listed as CMG12), 0.65 µM. Further, the Kd was determined as 0.18 µM at S. aureus SgtB [5], 0.38 µM in the experiment with E. faecalis PBP2a and 0.15 µM at E. coli PBP1b [6].
